In patent publication US12703729B2 (Zealand Pharma A/S, priority 2014, dated 2026):

Experiment: general procedure: Fmoc solid-phase peptide synthesis; TentaGel S Ram S resin
Details: whole synthesis, analytical HPLC and MS, scale of the general procedure 1 g resin (0.25 mmol/g), 1.05 g resin (0.23 mmol/g)

With “H-Y-Aib-EGTFISDYSIELDK-K(Hexadecanoyl-isoGlu)-HQQDFVNWLLAQGPSSGAPPPS-NH2” the “crude purity (method not given)” value was 30% and the “final HPLC purity” value was 96%.
